This note sets out measurements from paper PMC10657408, “c-di-GMP inhibits the DNA binding activity of H-NS in Salmonella” (Nature Communications, 2023).

The target in series [1] is T1, H-NS (UniProt P0A1S2).
T1 sequence (looked up): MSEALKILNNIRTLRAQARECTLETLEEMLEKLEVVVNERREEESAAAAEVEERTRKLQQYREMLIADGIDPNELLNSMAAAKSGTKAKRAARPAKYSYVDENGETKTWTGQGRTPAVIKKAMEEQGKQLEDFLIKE
Briefly: ITC. The conditions noted are these: ITC: 25 mM Tris-HCl, 150 mM NaCl, pH 7.5, 20 C, 100 uM DNA into 10 uM protein; recombinant protein; residues 1-137; probe letters rebuilt from the primers and the genome.

In series [2] the target is T1, H-NS. Briefly: EMSA. The settings on record: EMSA: 20 mM Tris-HCl, 4 mM MgCl2, 100 mM NaCl, 1 mM DTT, 1% NP-40, 10% glycerol, pH 7.4, room temperature, recombinant protein, probe letters rebuilt from the primers and the genome. Background: In EMSA bound probe runs differently from free probe, usually more slowly.
Series [3] addresses H-NS K107A (UniProt P0A1S2). Briefly: EMSA. The conditions noted are these: EMSA: 20 mM Tris-HCl, 4 mM MgCl2, 100 mM NaCl, 1 mM DTT, 1% NP-40, 10% glycerol, pH 7.4, room temperature, recombinant protein, residues 1-137, probe letters rebuilt from the primers and the genome.

For part of these data: Protein sequences can lack the tags named with them.

“CAAGAAGGATTATGCGGCGTCATTGCTAAAAGGTTCAATTATTCTTTATCCTCAGTCCGGATTCGGACATGAATTAAAAAGACGTAATAAAAGGAAGTTTTATAATTGAAAAGCATTCTTTTTCATGACCTTACAAGAAAATAAAAAAACAAAATACATATAAGATAAATATAGATTAAAGAAAAACAAAATAAACATGAATAATGTTAAAACCCACATTTACTTAAATGACGATGAAATAAAACTAAAAACAACGTAAAACTAATTCTTATTTAAAATGATATAGTGCCTGAGGTATTAA (double strand) [PyaiU]”: the Kd – broadly, the equilibrium constant for the complex coming apart – in series [1] was found to be 290 nM. In addition, the binding result is reported as “binds” in series [2] (residues 1-137); “binds” in series [2] (c-di-AMP or cGMP, residues …); “binds” in series [2] (c-di-GMP added after complex formation, residues 1-137); “binds” in series [3]; “binds” in series [3] (c-di-GMP added simultaneously).
